Tested on: M. tuberculosis H37Rv
Assay: Growth curves / viability (CFUs) of treated M. tuberculosis cultures
Type: cell-based, Mycobacterium tuberculosis
Settings: 4 mM compound combined with INH

| Molecule | effect on killing / emergence of resistant population when combined with INH |
| --- | --- |
| N[C@H](CS)C(=O)O | the same effect |
| L-Methionine | did not increase the killing |
| N[C@@H](CO)C(=O)O | did not increase the killing |
| CC(=O)N[C@@H](CS)C(=O)O | did not prevent the emergence of a drug-resistant population |
